## Primary screen of a compound library

A: 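Growth of Mycobacterium tuberculosis over 4 days (cholesterol / DPPC medium with tyloxapol); the read-out is not stated. Tested at 500 µM. The record gives no direction; compounds that gave an IC50 in retests scored well above the rest, so higher reads as more growth inhibition. Size under these conditions: about 18,000 compounds, about 900 of them at 50% or above in at least one test.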
B: 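Whole-cell growth test on Mycobacterium tuberculosis, read after 3 days in glucose-containing 7H9 medium; the read-out is not stated. Concentration: 500 µM. Higher reads as more growth inhibition (inferred: compounds with an IC50 in retests scored well above the rest). About 18,000 compounds were tested under these conditions; 7.9% (about 1,400) showed 50% or more at least once.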

Each number is a percent effect as filed.
The record does not define 0% and 100%; most values in the screen are far below 50% and negative numbers occur (in some assays of this library far below -100).
The entries come from a sample that favours strong results.
A dash means the value is not listed here; it may have been measured.

CC(C)N(CCN)C1CC1 read B: 22.22%. Result for CCCn1nnnc1NCc1ccc(F)cc1 was A: 60.93%; B: 76.53%. With COCCOCCCNC(=O)c1cn2cc(C)nc2s1 the screen gave B: 54.44%. Result for CCNC(=O)Cn1c(=O)n(CC)c2ccccc21 was B: 2.534%. For c1cn(CC2CCNCC2)nn1 the result was B: 15.23%.

For COc1ccccc1OC(C)CN (stereo not shown) the result was A: 85.77%; B: 87.48%. Cc1cccn2cc(CNc3ccc(C#N)nc3)nc12 read A: 0.1471%; B: -2.407%. Result for Cc1cc(C(=O)N2CCN(Cc3ccsc3)CC2)[nH]n1 was A: 84.01%; B: 77.11%. N#CC1COCCN1C(=O)c1ccc(Cl)cn1 (stereo not shown) gave B: -0.172%. Cc1noc(CNC(=O)CCc2ccco2)n1 gave A: 30.02%.

CCN1CCN(CC(C)CNc2ccncc2Cl)CC1 (stereo not shown) gave A: 1.7%. Result for Cc1cccc(NCC(=O)NC2CCCCC2)n1 was B: 57.73%. COc1cccc(CNCCCN2CCCC2=O)c1 gave A: 3.106%. Result for COCCN(C)CCCNC(=O)c1cnccn1 was B: 8.04%. Result for Cc1n[nH]cc1CNCCNc1ncccn1 was B: -7.285%.

With CC(O)CNC(=O)c1ccc(-c2ccccc2F)o1 (stereo not shown) the screen gave A: 29.68%; B: 47.33%. With O=C1CCN(S(=O)(=O)N2CCCCC2)CCN1 the screen gave A: 3.139%. O=C(N1CCCCC1)N1CCCC(c2nnc[nH]2)C1 (stereo not shown) gave B: 21.39%. Result for NC1CCCOc2ccc(F)cc21 (stereo not shown) was B: 15.91%. CC(C)(C)N1CC(=O)NCC1=O read A: 2.197%.

Cc1cccc(C)c1NC(=O)CCCS(C)(=O)=O gave B: 7.251%. For CN1C(=O)c2ccc(C(=O)Nc3nccs3)cc2C1=O the result was A: -10.4%. For OCCOCCN1CCN(c2ccccc2F)CC1 the result was A: 2.104%; B: 4.336%. For c1cncc(CN2CCC(N3CCCC3)CC2)c1 the result was B: 1.77%. CCN1CCN(c2cc(C#N)ccn2)CC1 gave B: 24.38%.

For CN(CCCO)C(CCO)c1ccccc1 (stereo not shown) the result was A: 0.4744%. Result for CCS(=O)(=O)c1cccc(S(=O)(=O)N2CC[C@H](N)C2)c1 was A: 17.36%; B: 26.81%. Cc1nc(CN2CCN(c3ncccc3F)CC2)n[nH]1 gave A: 13.66%. CC(CN)c1cccc(F)c1 (stereo not shown) read B: 8.821%. With OCC1CCCN1c1ncnc2ccc(F)cc12 (stereo not shown) the screen gave B: -2.222%.

OCc1cn(CC2CC2)nn1 read B: -5.302%. COc1ccncc1NCc1cccc(C#N)c1 read B: 23.97%. Result for O=c1cc(N2CCCC2)cnn1CC1CCNC1 (stereo not shown) was B: 2.003%. With CNc1ccnc(N2CCCC3(CN(C)C(=O)O3)C2)n1 (stereo not shown) the screen gave A: -4.21%. For Cc1cc(NC(=O)c2ccc(Cl)cn2)nc(=O)[nH]1 the result was B: -5.952%.

Result for NC1CCC(F)(F)CC1 was A: -2.74%. NCc1ccc2c(c1)COC2 read B: 2.811%. With Cc1cc(NC(=O)NC[C@@H]2C[C@H](F)CN2)n(C(C)C)n1 the screen gave B: 4.345%. With CCN1CCN(C(=O)c2cccnc2SC(C)C)CC1 the screen gave B: 16.22%.

Some entries from above, unchanged:

| Compound | A | B |
|---|---|---|
| `Cc1cc(NC(=O)NC[C@@H]2C[C@H](F)CN2)n(C(C)C)n1` | - | 4.345 |
| `CCNC(=O)Cn1c(=O)n(CC)c2ccccc21` | - | 2.534 |
| `CCN1CCN(c2cc(C#N)ccn2)CC1` | - | 24.38 |
| `NC1CCC(F)(F)CC1` | -2.74 | - |
| `CC(C)N(CCN)C1CC1` | - | 22.22 |

The values are deposited in ChEMBL (CHEMBL3988442, “University of Dundee, Small-Polar-MMV Screening Library” (2021)).